From PMC12589655, “Conformational dynamics, RNA binding, and phase separation regulate the multifunctionality of rabies virus P protein” (2025)

Experiments:
[1] = test system: CVS P3-D289N, recombinant, rabies virus, strain CVS-11, P22363 53-297; experiment: cross-linking
[2] = test system: CVS P3-KRm, recombinant (K214A/R260A), rabies virus, strain CVS-11, P22363 53-297; experiment: cross-linking

Substance	result [1]	result [2]
CVS P3-D289N, recombinant	binds	–
CVS P3-KRm, recombinant (K214A/R260A) K214A | R260A	–	binds
